The supplement of paper PMC9931576
Human monoclonal antibodies against the spike receptor-binding domain (heavy:light variable regions). IC50 against pseudoviruses bearing the spike of naturally observed variants; lower = stronger; >10 µg/ml means not reached at the top dose. No active / inactive call. The stated detection limit is 0.0005 µg/ml; values near or below 0.001 µg/ml lie at the floor of the assay.

B1: BD55-3773 (protein)
chain 1: QVQLVQSGAEVKKPGASVKVSCKASGYIFTNYGISWVRQAPGQGLEWMGWISAYKSNTEYAQKFQGRVTMTIDKSTSIAYMELRSLRSDDTAVYYCARDRHYYGSGSFCDYWGQGTLVAVSS
chain 2: DVVMTQSPLSLPVTLGQPASISCRSSQSLVYSDGNTFLNWFQQRPGQSPRRLIYEVSHRDSGVPERFSGSGSATDFTLKISRVEAEDVGVYYCMQGTHWPPTFGQGTKVEIK
B2: BD55-3807 (protein)
chain 1: QVQLQESGPGLVKPSQTLSLTCTVSGGSISSGGYYWSWIRQHPGKGLEWIGYIYYTGSTYYNPSLKSRVTISVDTSKNQFSLKLNSVTAADTAVYYCARGKMYYDVLTGYYKGDWFDPWGLGTLVTVSS
chain 2: QSALTQPASVSGSPGQSITISCTGTSSDVFGYNYVSWYQQQPGKAPKLMIFDVSNRPSGVSNRFSGSKSGNTASLTISGLQAEDEADYYCSSYTNSSPLFGGGTKLTVL
B3: BD55-4328 (protein)
chain 1: QVQLVQSGAEVKKPGSSVKVSCTASGGTFSSYFVTWVRQAPGQGLEWMGRISPLLGESKQAQRLQGRATITADKSTGTVYMELNSLRSEDTAVYYCASGRSLHDVLTGRYNYAMDVWGPGTAVTVSS
chain 2: NFMLTQPHSVSESPGKTVTISCTRSSGSIASNYVQWYQQRPGSAPTTVIYEDNERPSGVPDRFSGSIDSSSNSASLTISGLMTEDEADYYCQSYDGSNDGVFGGGTKLTVL
B4: BD55-4329 (protein)
chain 1: QVQLVESGGGVVQPGRSLRLSCAASGFTFRAFTTYWVRQAPGQGLEWVAVISSDGTAKFYADSVKGRFTISRDDSKNTLFLQMNSLRPEDTAVYYCARVTYAYGFGGEFLDYWGQGTLVTVSS
chain 2: DIQLTQSPSSLSASVGDRVTITCRASQSVSTYLNWYQQKPGNAPKLLIYAASNLQSGVPSRFSGSGSGTDFTLTISSLQPEDFASYYCQQSYVTPALTFGGGTKVEIK
B5: BD55-4342 (protein)
chain 1: EVQLVESGGSLVKPGGSLRLSCAASGFDFSNYAMDWVRQAPGKGLEWVSSISNSGSLMFYADSVKGRFTISRDNAKNSLYLQLNSLRAEDTAIYFCAREADSNYQVIFDYWGQGSLVTVSS
chain 2: DIQMTQSPSSLSASVGDRVTITCRASQTINTYLNWYQQKPGKAPRLLIYSVSTLQSGVPSRFSGSGSGTDFTLTISSLQPEDFATYFCQQSYNTPQVTFGQGTRLEIK
B6: BD55-4357 (protein)
chain 1: QVQLVESGGGVVQPGRSLRLSCTASGFTLSNYAMHWVRQAPGKGLEWVAAIPNDGSNKFYAESVKGRFTISRDNSKNTVFLQMNSLRGEDTAVYYCARPHDTLTGYYFAYFDSWGQGTLVTVSS
chain 2: ELVMTQSPGTLSVSPGERATLACRASRSVSSSLAWYQQKPGQAPRLLIYDASTRATGIPARFSGSGSGTEFTLTISSLQSEDFAVYYCQQYNNWPPGPFGQGTKVEIK

What follows are binders tested against SARS-CoV-2 Omicron BA.1 spike pseudovirus (assay: pseudovirus neutralization IC50; higher = weaker neutralization).
Experimental: (§1)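 Single-round VSV luciferase pseudovirus mixed with antibody dilutions for 1 h and put on Huh-7 cells for about a day; IC50 from the dose curve.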

Binder	pseudovirus neutralization IC50 [µg/mL]
B1	2.89
B2	> 10
B3	> 10
B4	> 10
B5	3.52
B6	> 10

The binders below were run against SARS-CoV-2 Omicron BA.2 spike pseudovirus in the same assay as above.
Experimental: as §1

Binder	pseudovirus neutralization IC50 [µg/mL]
B1	4.29
B2	> 10
B3	> 10
B4	> 10
B5	6.47
B6	> 10

What follows are binders tested against SARS-CoV-2 Omicron BA.2.75 spike pseudovirus in the same assay as above.
Experimental: as §1

Binder	pseudovirus neutralization IC50 [µg/mL]
B1	3.35
B2	> 10
B3	> 10
B4	> 10
B5	4.3
B6	> 10

What follows are binders tested against SARS-CoV-2 Omicron BA.5 spike pseudovirus in the same assay as above.
Experimental: as §1

Binder	pseudovirus neutralization IC50 [µg/mL]
B1	3.51
B2	> 10
B3	> 10
B4	> 10
B5	1.69
B6	> 10

Each binder was assayed against SARS-CoV-2 Omicron BQ.1.1 spike pseudovirus in the same assay as above.
Experimental: as §1

Binder	pseudovirus neutralization IC50 [µg/mL]
B1	> 10
B2	> 10
B3	> 10
B4	> 10
B5	2.55
B6	> 10

What follows are binders tested against SARS-CoV-2 Omicron XBB spike pseudovirus in the same assay as above.
Experimental: as §1

Binder	pseudovirus neutralization IC50 [µg/mL]
B1	> 10
B2	> 10
B3	> 10
B4	> 10
B5	1.96
B6	> 10

The binders below were run against SARS-CoV-2 early D614G spike pseudovirus in the same assay as above.
Experimental: as §1

Binder	pseudovirus neutralization IC50 [µg/mL]
B1	0.516
B2	> 10
B3	0.938
B4	> 10
B5	1.33
B6	5.61
